## Genome-wide point mutation profile of HIV-1: protease

Source: Al-Mawsawi et al. 2014 (doi:10.1186/s12977-014-0124-6), supplementary data.

Protein: protease of HIV-1 NL4-3, numbered from its first residue. The source prints no sequence; the chain below is taken from UniProt P12497, a closely related isolate, and fits the source at the 87 positions it covers.
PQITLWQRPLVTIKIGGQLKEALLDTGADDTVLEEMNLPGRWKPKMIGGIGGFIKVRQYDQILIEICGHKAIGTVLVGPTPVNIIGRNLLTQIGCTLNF
The overlapping Gag p6 frame may change too; the source does not say.
Effects on overlapping genes or RNA elements are not listed.

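Seven fragments of pNL4-3 were mutated by error-prone PCR, and each virus pool was passaged in CEM T cells. The RC index is the frequency of a change after passage round 2 divided by its frequency in the plasmid library.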

A higher RC index is a better tolerated change; approximate classes are lethal up to 0.1, attenuated to 0.2, tolerated above.
Substitutions are written as wild-type residue, site number, new residue.
Input reads are the counts in the plasmid library.
An index over 1, which the authors read as above wild type, was rare (1.9% of all changes in the genome).
Base changes are numbered along pNL4-3.
Clones carried about five changes per kilobase, which can drag down the index of neutral changes.

substitution,base,input reads,RC
P1T,C2253A,261,0.109
P1H,C2254A,351,0.113
P1L,C2254T,104,0.418
T4I,C2263T,502,0.233
L5P,T2266C,273,0.0761
W6R,T2268A,410,0.0138
W6L,G2269T,165,0.0572
W6C,G2270C,133,0.0710
R8Q,G2275A,259,0.452
R8L,G2275T,301,0.100
P9T,C2277A,174,0.0651
P9H,C2278A,416,0.0953
P9L,C2278T,207,0.246
L10H,T2281A,510,0.0370
V11I,G2283A,443,0.260
V11F,G2283T,108,0.0699
V11D,T2284A,246,0.0230
V11G,T2284G,151,0.0125
T12S,A2286T,477,0.0238
T12K,C2287A,42,0.0899
I13V,A2289G,416,0.0318
I13K,T2290A,245,0.0462
I13T,T2290C,212,0.0356
I13M,A2291G,290,0.0586
K14E,A2292G,908,0.0543
K14R,A2293G,935,0.0264
K14M,A2293T,922,0.0357
K14N,G2294T,341,0.0724
I15L,A2295C,72,0.0571
I15V,A2295G,423,0.0535
I15K,T2296A,498,0.0495
I15T,T2296C,341,0.0482
G16R,G2298A,934,0.156
G16R,G2298C,196,0.0629
G16A,G2299C,131,0.0314
G17R,G2301A,1136,0.0887
G17V,G2302T,576,0.0535
Q18L,A2305T,588,0.0280
L19I,T2307A,344,0.0717
L19S,T2308C,352,0.0643
K20E,A2310G,622,0.0430
K20T,A2311C,96,0.578
K20R,A2311G,192,0.203
K20N,G2312T,709,0.0667
A22P,G2316C,87,0.129
A22D,C2317A,105,0.513
L23I,C2319A,427,0.126
L23P,T2320C,221,0.142
L24F,A2324T,342,0.0525
D25G,A2326G,165,0.0680
T26A,A2328G,380,0.0886
T26K,C2329A,176,0.115
A28T,G2334A,371,0.260
A28P,G2334C,91,0.123
A28S,G2334T,179,0.0877
D29G,A2338G,178,0.151
D29E,T2339A,348,0.0516
D30Y,G2340T,77,0.524
D30A,A2341C,98,0.114
D30V,A2341T,527,0.0255
T31A,A2343G,353,0.102
T31S,A2343T,567,0.0317
V32L,G2346T,72,0.0935
V32E,T2347A,218,0.0309
V32A,T2347C,120,0.710
L33V,T2349G,163,0.0551
L33S,T2350C,321,0.0699
E34G,A2353G,452,0.0447
E35D,A2357T,489,0.0551
M36V,A2358G,338,0.0664
M36K,T2359A,175,0.0897

7 of these entries, quoted again:

substitution,base,input reads,RC
V11F,G2283T,108,0.0699
D25G,A2326G,165,0.0680
T31A,A2343G,353,0.102
W6L,G2269T,165,0.0572
K20N,G2312T,709,0.0667
L33V,T2349G,163,0.0551
I15T,T2296C,341,0.0482